Consider 2 sequences from publication PMC4814116, “Design of Novel Relaxase Substrates Based on Rolling Circle Replicases for Bioconjugation to DNA Nanostructures”.

This data set concerns the target T1, MobAR (minMobA) (plasmid RSF1010) (UniProt P07112).
T1 sequence (looked up): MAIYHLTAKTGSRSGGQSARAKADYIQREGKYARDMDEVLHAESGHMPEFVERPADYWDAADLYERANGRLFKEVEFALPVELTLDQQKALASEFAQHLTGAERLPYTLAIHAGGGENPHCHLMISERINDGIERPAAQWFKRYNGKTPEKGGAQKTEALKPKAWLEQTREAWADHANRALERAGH
The data set is described as follows: SDS-PAGE covalent complex. Particulars: 5 mM Mg2+, no cleavage; Covalent complex: 15 uM oligo, 37 C 1 h, 5 mM MgCl2, 15 uM EDTA; TrwCR 10 mM Tris pH 7.6, 375 mM NaCl; MobAR 25 mM Tris pH 8.0, 225 mM NaCl; TraIR 10 mM Tris pH 7.6; recombinant protein; residues 1-186; folded or branched ….

Negatives hold for the conditions tested. Protein sequences can lack the tags named with them.

“TAAGTGCGCCCTCCCAGCTGAATGTTCGAGTTTCTCGAAGAGAAACCG [RSF1010 RQ(8+40)]”: the binding result is “no binding”. Regarding “TAAGTGCGCCCTCCCCAGTTTCTCGAAGAGAAACCG [RSF1010 RQ(8+28)]”, the binding result is “no binding”.
